Results of unrelated studies side by side (data: NIAID ChemDB).

All rows: tests on isolated targets; organism: HIV; protein: Protease; read-out: IC50

An empty or dashed field is not shown. Conditions beyond the fields shown may differ between rows. a–b is a range or a potency band. ICn: concentration for n% inhibition.

SMILES	changes	read by	value
CC(C)(C)NC(=O)[C@@H]1CCCN1C(=O)[C@@H](O)[C@H](Cc1ccccc1)NC(=O)[C@H](CC(N)=O)NC(=O)COc1cccc([N+](=O)[O-])c1		HPLC	0.032 µg/mL
O=C(CCCCCC(=O)Nc1ccc(S(=O)(=O)O)c2cccc(S(=O)(=O)O)c12)Nc1ccc(S(=O)(=O)O)c2cccc(S(=O)(=O)O)c12		fluorescence	110 µM
COc1ccc(S(=O)(=O)N(CCc2ccc3c(c2)OCO3)C[C@H](O)CN2C[C@H]3CCCC[C@H]3C[C@H]2C(=O)NC(C)(C)C)cc1			42.43 µM
O=S(=O)(O)c1cc(S(=O)(=O)O)c2cc(NS(=O)(=O)c3ccc(-c4ccc(S(=O)(=O)Nc5ccc6cc(S(=O)(=O)O)cc(S(=O)(=O)O)c6c5)cc4)cc3)ccc2c1		fluorescence	14 µM
CC(C)CN(C[C@@H](O)COC(=O)Nc1ccc2[nH]ccc2c1)S(=O)(=O)c1ccc([N+](=O)[O-])cc1			2.4 µM
O=C(CC1CCOC1)C[C@@H](CC1CCCCC1)[C@@H](O)C[C@@H](Cc1ccccc1)C(=O)N[C@H]1c2ccccc2C[C@H]1O		HPLC	0.0115–0.058 µM
CC(C)(C)NC(=O)[C@@H]1C[C@@H]2CCCC[C@@H]2CN1C[C@@H](O)CN(CCc1cccc([N+](=O)[O-])c1)S(=O)(=O)c1cccc([N+](=O)[O-])c1			29.85 µM
CCCC[C@H](NC(=O)[C@H](C)NC(=O)[C@H](CCC(=O)O)NC[C@H](Cc1ccccc1)NC(=O)[C@H](CC(C)C)NC(=O)[C@@H](NC(=O)[C@@H](N)CCCN=C(N)N)C(C)C)C(N)=O	PR-K45I	HPLC	>0.075 µM
CC(C)(C)NC(=O)[C@@H]1C[C@@H]2CCCC[C@@H]2CN1C[C@@H](O)CN(CCc1ccc2c(c1)OCO2)S(=O)(=O)c1cccc(N)c1			89.43 µM
CCCCC(=O)C[C@@H](CC1CCCCC1)[C@@H](O)C[C@@H](Cc1ccccc1)C(=O)N[C@H]1c2ccccc2C[C@H]1O		HPLC	0.0115–0.058 µM
CCCN(C[C@H](O)CN1C[C@H]2CCCC[C@H]2C[C@H]1C(=O)NC(C)(C)C)S(=O)(=O)c1ccc([N+](=O)[O-])cc1			35.75 µM
COC(=O)C(=O)N1CCC[C@H]1C(=O)N[C@@H](Cc1ccccc1)C(=O)Nc1ccc(OCC(=O)N[C@@H](CC(N)=O)C(=O)N[C@@H](Cc2ccccc2)[C@H](O)C(=O)N2CCC[C@H]2C(=O)NC(C)(C)C)cc1		HPLC	0.034 µg/mL
O=C(CCCCCCCCCCC(=O)Nc1ccc(S(=O)(=O)O)c2ccccc12)Nc1ccc(S(=O)(=O)O)c2ccccc12		fluorescence	275 µM
COC(=O)C(=O)N1CCC[C@H]1C(=O)N[C@@H](Cc1ccccc1)C(=O)Nc1ccccc1OCC(=O)N[C@@H](CC(N)=O)C(=O)N[C@@H](Cc1ccccc1)[C@H](O)C(=O)N1CCC[C@H]1C(=O)NC(C)(C)C		HPLC	>0.1 µg/mL
CC(C)CN(C[C@H](O)CN1C[C@H]2CCCC[C@H]2C[C@H]1C(=O)NC(C)(C)C)S(=O)(=O)c1cccc(N)c1			0.38 µM
CC(C)(C)NC(=O)[C@@H]1C[C@H](O)CN1C(=O)[C@@H](O)[C@H](Cc1ccccc1)NC(=O)[C@H](CC(N)=O)NC(=O)OCc1ccccc1		HPLC	0.022 µg/mL
COc1ccc(S(=O)(=O)N(CC2CCCCC2)C[C@H](O)CN2C[C@H]3CCCC[C@H]3C[C@H]2C(=O)NC(C)(C)C)cc1			3.74 µM
O=C(N[C@H]1c2ccccc2C[C@H]1O)[C@H](Cc1ccccc1)C[C@H](O)[C@@H](CCO)CC1CCCCC1		HPLC	0.001–0.1 µM

3 of the rows above, restated:

SMILES,changes,read by,value
CC(C)CN(C[C@@H](O)COC(=O)Nc1ccc2[nH]ccc2c1)S(=O)(=O)c1ccc([N+](=O)[O-])cc1,,,2.4 µM
CC(C)(C)NC(=O)[C@@H]1C[C@@H]2CCCC[C@@H]2CN1C[C@@H](O)CN(CCc1cccc([N+](=O)[O-])c1)S(=O)(=O)c1cccc([N+](=O)[O-])c1,,,29.85 µM
O=C(N[C@H]1c2ccccc2C[C@H]1O)[C@H](Cc1ccccc1)C[C@H](O)[C@@H](CCO)CC1CCCCC1,,HPLC,0.001–0.1 µM